{"source": "PubChem BioAssay AID624099 (ICCB-Longwood, 2012)", "assay": "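Knock-downs relieving repression by E2 of an HPV18 LCR luciferase reporter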 (primary screen)", "cells": "human C33A cervical carcinoma cells (HPV-negative) stably expressing BPV1 E2 and an HPV18 LCR luciferase reporter", "reagents": "siRNA pool against human genes, 40 nM", "duration": "72 h", "read-out": "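HPV18 LCR reporter light per well, converted to plate-wise z-scores that exclude control wells, and averaged over triplicate plates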", "scale": "mean z-score and z-score: higher = stronger reporter signal, weaker E2 silencing", "active means": "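Hit if mean z-score reaches 2 and two or more of three replicate z-scores also reach 2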", "note": "The whole screen tested about 21,000 reagents; this is an unselected part. Over the whole deposit, 497 (2.4%) were called active. 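Higher z means weaker E2 silencing; only reporter increases were scored, and knock-downs that hurt cell survival may mask genuine repressor factors.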 Unmarked entries are inactive."}
{"gene": "EGR4 (early growth response 4)", "mean z-score": 1.22, "z-score, replicate A": 1.05, "z-score, replicate B": 0.83, "z-score, replicate C": 1.78}
{"gene": "ZNF507 (zinc finger protein 507)", "mean z-score": 0.59, "z-score, replicate A": 0.69, "z-score, replicate B": 0.65, "z-score, replicate C": 0.42}
{"gene": "VRK1 (VRK serine/threonine kinase 1)", "mean z-score": 0.17, "z-score, replicate A": 0.2, "z-score, replicate B": -0.06, "z-score, replicate C": 0.36}
{"gene": "MS4A12 (membrane spanning 4-domains A12)", "mean z-score": 0.8, "z-score, replicate A": 0.67, "z-score, replicate B": 0.74, "z-score, replicate C": 1}
{"gene": "LOC400551 (retired record)", "mean z-score": -1.46, "z-score, replicate A": -1.67, "z-score, replicate B": -1.34, "z-score, replicate C": -1.38}
{"gene": "ALKBH3 (alkB homolog 3, alpha-ketoglutarate dependent dioxygenase)", "mean z-score": 0.69, "z-score, replicate A": 0.86, "z-score, replicate B": 0.69, "z-score, replicate C": 0.53}
{"gene": "NOP56 (NOP56 ribonucleoprotein)", "mean z-score": -0.6, "z-score, replicate A": -0.51, "z-score, replicate B": -0.66, "z-score, replicate C": -0.63}
{"gene": "KCNAB3", "mean z-score": -0.22, "z-score, replicate A": -0.37, "z-score, replicate B": 0, "z-score, replicate C": -0.29}
{"gene": "IGFBP1 (insulin like growth factor binding protein 1)", "mean z-score": -0.33, "z-score, replicate A": -0.28, "z-score, replicate B": -0.76, "z-score, replicate C": 0.04}

Part of the list above, reformatted:
gene,mean z-score,"z-score, replicate A","z-score, replicate B","z-score, replicate C"
EGR4 (early growth response 4),1.22,1.05,0.83,1.78
ZNF507 (zinc finger protein 507),0.59,0.69,0.65,0.42
VRK1 (VRK serine/threonine kinase 1),0.17,0.2,-0.06,0.36
MS4A12 (membrane spanning 4-domains A12),0.8,0.67,0.74,1

Continued:
{"gene": "HDGFL1 (HDGF like 1)", "mean z-score": -0.07, "z-score, replicate A": 0.02, "z-score, replicate B": -0.24, "z-score, replicate C": 0.02}
{"gene": "LSM6", "mean z-score": -0.93, "z-score, replicate A": -1.13, "z-score, replicate B": -0.8, "z-score, replicate C": -0.86}
{"gene": "CAPN7 (calpain 7)", "mean z-score": 0.15, "z-score, replicate A": -0.48, "z-score, replicate B": 0.27, "z-score, replicate C": 0.67}
{"gene": "RD3 (RD3 regulator of GUCY2D)", "mean z-score": -0.32, "z-score, replicate A": -0.2, "z-score, replicate B": -0.46, "z-score, replicate C": -0.31}
{"gene": "LOC401442", "mean z-score": 0.37, "z-score, replicate A": 0.11, "z-score, replicate B": 0.44, "z-score, replicate C": 0.58}
{"gene": "SFPQ (splicing factor proline and glutamine rich)", "mean z-score": "2.63 (active)", "z-score, replicate A": 2.23, "z-score, replicate B": 2.19, "z-score, replicate C": 3.47}
{"gene": "SRM (spermidine synthase)", "mean z-score": 0.25, "z-score, replicate A": -0.26, "z-score, replicate B": -0.06, "z-score, replicate C": 1.08}
{"gene": "DQX1 (DEAQ-box RNA dependent ATPase 1)", "mean z-score": -0.41, "z-score, replicate A": -0.4, "z-score, replicate B": 0.01, "z-score, replicate C": -0.84}
{"gene": "AHCYL2 (adenosylhomocysteinase like 2)", "mean z-score": -0.36, "z-score, replicate A": -0.07, "z-score, replicate B": -0.29, "z-score, replicate C": -0.72}
{"gene": "C3orf38 (chromosome 3 open reading frame 38)", "mean z-score": 1.14, "z-score, replicate A": 0.88, "z-score, replicate B": 1.54, "z-score, replicate C": 1}
{"gene": "SPMIP3 (sperm microtubule inner protein 3)", "mean z-score": 1.42, "z-score, replicate A": 1.62, "z-score, replicate B": 1.22, "z-score, replicate C": 1.41}
{"gene": "KRT4 (keratin 4)", "mean z-score": 0.72, "z-score, replicate A": 0.66, "z-score, replicate B": 0.88, "z-score, replicate C": 0.6}
